Compound potency records, mixed from different reports. Data source: NIAID ChemDB in PubChem.

Shared fields: tests in culture; species: Mycobacterium fortuitum

A number after MIC or MFC names an inhibition level or a share of isolates.

smiles | measure | read by | conditions | strain or isolate | value
CC1(C)CC[C@]2(C(=O)O)CC[C@]3(C)C(CC[C@@H]4[C@@]5(C)C[C@H](O)CC(C)(C)[C@@H]5CC[C@]43C)[C@@H]2C1 | MIC | resazurin | - | - | 100 µg/mL
N/C(=N/N=C/c1cccc(F)c1)c1ccccn1 | MIC | - | - | - | 256 µg/mL
N/C(=N\N=C\c1ccccc1Sc1ccc(Cl)cc1)c1ccccn1 | MIC | - | - | NCTC 10394 | 12.5–25 µg/mL
CCCCCCSc1ccnc(C(N)=S)c1 | MIC | - | - | 1021 | 125 µM
CCn1cc(C(=O)O)c(=O)c2cc(F)c(C3SCC(C)N3C)cc21 | MIC | - | - | - | 50 µg/mL
Cc1ccc(/C=N/NC(=O)c2c(C)noc2N)cc1 | MIC90 | resazurin | - | PCM 672 | >100 µg/mL
CCn1cc(C(=O)O)c(=O)c2cc(F)c(-c3csc(N(C)C)n3)cc21 | MIC | - | - | - | 12.5 µg/mL
CCOC1Oc2ccc(C)cc2C(=O)/C1=C\Nc1ccc(C(=O)O)c(O)c1 | MIC | - | - | 1021 | >100 µg/mL
N/C(=N/N=C/c1ccccc1Cl)c1ccccn1 | MIC | - | - | - | 128 µg/mL
CCc1cc(C(N)=S)ccn1 | EC50 | agar | - | 198 strains | >5 µg/mL
Cc1cccc(Nc2nc(C(N)=S)cnc2C(N)=O)c1 | MIC | - | - | 1021 | >100 µg/mL
CC(C)N=c1cc2n(-c3ccc(Cl)cc3)c3ccccc3nc-2cc1Nc1ccc(Cl)cc1 | MIC50 | broth dilution | - | - | ≤0.5 µg/mL
C[C@@H]([C@H](NC(=O)[C@H](Cc1ccc2ccccc2c1)NC(=O)N[C@@H](Cc1c[nH]c2ccccc12)C(=O)NCC(C)(C)C)C(=O)NC[C@H]1C[C@@H](O)[C@H](n2ccc(=O)[nH]c2=O)O1)N(C)C(=O)CN | MIC | resazurin / fluorescence | - | PN | 1.6 µM
NC(=O)c1ncc(C(N)=S)nc1NC1CCCCCC1 | MIC | - | - | 1021 | >100 µg/mL
CO[C@@]1(NC(=O)C2SC(=C(C(N)=O)C(=O)[O-])S2)C(=O)N2C(C(=O)[O-])=C(CSc3nnnn3C)CS[C@@H]21 | MIC | - | - | 1047 | 50 µg/mL
C[C@@H]1CN(c2c(F)c(N)c3c(=O)c(C(=O)O)cn(C4CC4)c3c2F)C[C@H](C)N1 | MBC | - | - | NCTC 10394 | 0.5 µg/mL
COc1cccc(Nc2nc(C#N)cnc2C(N)=O)c1 | MIC | - | - | 1021 | >100 µg/mL
CC(C)N=c1cc2n(-c3ccc(Cl)cc3)c3ccccc3nc-2cc1Nc1ccc(Cl)cc1 | MIC | - | - | TB87 | 2 µg/mL
COc1cc2c(cc1O)CCc1cc(OC)c(OC)c(O)c1-2 | MIC | - | - | - | 25 µg/mL
N/C(=N\N=C\Cc1ccc[nH]1)c1ccccn1 | MIC | - | - | NCTC 10394 | >50 µg/mL
Cc1noc2nc(C)n(/N=C/c3ccc(O)cc3)c(=O)c12 | MIC90 | resazurin | - | PCM 672 | >100 µg/mL
C[C@@H]1CN(c2c(F)c(N)c3c(=O)c(C(=O)O)cn(C4CC4)c3c2F)C[C@H](C)N1 | MIC | - | - | 2 isolates | 0.3 µg/mL
COC(=O)/C=C/C(=O)c1ccc(C(C)(C)C)cc1 | MIC | - | - | - | 4 µg/mL
CCOC1Oc2ccc(Cl)cc2C(=O)/C1=C\Nc1cccc(C(=O)O)c1O | MIC | - | - | 1021 | >100 µg/mL
N#Cc1cnc(C(N)=O)c(Nc2cccc(O)c2)n1 | MIC | - | - | 1021 | >100 µg/mL
CN[C@@H]1[C@H](O[C@H]2[C@H](O[C@H]3[C@H](O)[C@@H](O)[C@H](N=C(N)N)[C@@H](O)[C@@H]3N=C(N)N)O[C@@H](C)[C@]2(O)C=O)O[C@@H](CO)[C@H](O)[C@H]1O | MIC | - | - | - | 1.56 µg/mL
NC(=S)c1cc(SC2CCCCC2)ccn1 | MIC | - | - | 1021 | 1000 µM
NC(=O)c1ncc(C(N)=S)nc1Nc1ccccc1 | MIC | - | - | 1021 | 100 µg/mL
CCCCCSc1ccnc(C(N)=S)c1 | MIC | - | - | 1021 | 250 µM
CCn1cc(C(=O)O)c(=O)c2cc(Cl)c(-c3nc(C)c(C)s3)cc21 | MIC | - | - | - | 6.25 µg/mL
N/C(=N\N=C\c1ccc([N+](=O)[O-])cc1)c1ccccn1 | MIC | - | - | - | 256 µg/mL
NC[C@H]1O[C@H](O[C@H]2[C@H](O)[C@@H](O[C@H]3O[C@H](CO)[C@@H](O)[C@H](N)[C@H]3O)[C@H](N)C[C@@H]2N)[C@H](O)[C@@H](O)[C@@H]1O | MBC90 | - | - | 31 isolates | >64 µg/mL
CO[C@@]1(NC(=O)Cc2cccs2)C(=O)N2C(C(=O)O)=C(COC(N)=O)CS[C@@H]21 | MIC | - | - | 1263 | 25 µg/mL
CN1CCN(c2c(F)cc3c(=O)c(C(=O)O)cn(CCF)c3c2F)CC1 | MIC50 | - | - | 18367 | 1.56 µg/mL
CCn1cc(C(=O)O)c(=O)c2cc(Cl)c(C3SCC(C)N3C)cc21 | MIC | - | - | - | 25 µg/mL
N#Cc1cnc(C(N)=O)c(NC2CCCCCC2)n1 | MIC | - | - | 1021 | >100 µg/mL
CCc1cc(C(N)=S)ccn1 | MIC | - | - | ATCC 6841 | >250 µg/mL
C[C@@H]1CN(c2c(F)c(N)c3c(=O)c(C(=O)O)cn(C4CC4)c3c2F)C[C@H](C)N1 | MIC | - | - | ATCC 6841 | 0.3 µg/mL
CCCCN(CCCC)c1nc(C(N)=S)cnc1C(N)=O | MIC | - | - | 1021 | >100 µg/mL
S=C=NCCCCCCN=C=S | MIC | visual reading | - | - | 16 µg/mL
CCn1cc(C(=O)O)c(=O)c2cc(F)c(C3CSC(C)N3C)cc21 | MIC | - | - | - | >100 µg/mL
N#Cc1cnc(C(N)=O)c(Nc2cccc(Br)c2)n1 | MIC | - | - | 1021 | >100 µg/mL
CCn1cc(C(=O)O)c(=O)c2ccc(-c3nc(-c4ccccc4)cs3)cc21 | MIC | - | - | - | 1.6 µg/mL
CCOC(=O)/C(N=Nc1ccc(-c2n[nH]c(=S)n2CC)cc1)=C(\C)O | MIC | - | - | ATCC 6841 | 64 µg/mL
CO[C@@]1(NC(=O)CCCC(N)C(=O)O)C(=O)N2C(C(=O)O)=C(COC(C)=O)CSC21 | MIC | - | - | 1048 | >100 µg/mL
NCC[C@H](O)C(=O)N[C@@H]1C[C@H](N)[C@@H](O[C@H]2O[C@H](CN)[C@@H](O)[C@H](O)[C@H]2O)[C@H](O)[C@H]1O[C@H]1O[C@H](CO)[C@@H](O)[C@H](N)[C@H]1O | MIC90 | - | - | 31 isolates | 16 µg/mL
CO[C@@]1(NC(=O)Cc2ccccc2)C(=O)N2C(C(=O)[O-])=C(CSc3nnc(C)s3)CSC21 | MIC | - | - | AO5 | 25 µg/mL
CN1CCN(c2cc3c(cc2F)c(=O)c(C(=O)O)cn3C2CC2)CC1 | MIC90 | - | - | 16 isolates | 0.25 µg/mL
COc1ccc(/C=N/NC(=O)c2c(C)noc2N)cc1 | MIC90 | resazurin | - | PCM 672 | 62.5 µg/mL
CCSc1ccnc(C(N)=S)c1 | MIC | - | - | 1021 | 500 µM
CCOC(=O)/C(N=Nc1ccc(-c2n[nH]c(=S)n2-c2ccccc2)cc1)=C(\C)O | MIC | - | - | ATCC 6841 | 64 µg/mL
C[C@@H]([C@H](NC(=O)[C@H](CC1CCCCC1)NC(=O)N[C@@H](Cc1c[nH]c2ccccc12)C(=O)NCC(C)(C)C)C(=O)NC[C@H]1C[C@@H](O)[C@H](n2ccc(=O)[nH]c2=O)O1)N(C)C(=O)CN | MIC | resazurin / fluorescence | - | rA17 | 1.408 µM
CSc1nc(N)c2c(n1)NC(c1ccc(C(F)(F)F)cc1)CC(c1ccc3c(c1)OCO3)=N2 | MIC | MTT / broth dilution / absorbance | clinical isolate | MNT1073 | >32 µg/mL
CCCSc1ccnc(C(N)=S)c1 | MIC | - | - | 1021 | 250 µM
NC[C@H]1O[C@H](O[C@H]2[C@H](O)[C@@H](O[C@H]3O[C@H](CO)[C@@H](O)[C@H](N)[C@H]3O)[C@H](N)C[C@@H]2N)[C@H](N)C[C@@H]1O | MBC90 | - | - | 31 isolates | >64 µg/mL
Cc1ccc(/C=N/N=C(/N)c2ccccn2)cc1 | MIC | - | - | - | 256 µg/mL
COc1cc(O)cc(OC)c1C(=O)/C=C/c1ccccc1 | MIC | - | - | - | 100 µg/mL
CCn1cc(C(=O)O)c(=O)c2ccc(-c3cscn3)cc21 | MIC | - | - | - | 6.25 µg/mL
CCC(C)(C)c1ccc(/C=N/N=C(\N)c2ccccn2)cc1 | MIC | - | - | NCTC 10394 | 6.3–12.5 µg/mL
Nc1ccc(-c2n[nH]c(=O)n2-c2ccccc2)cc1 | MIC | - | - | ATCC 6841 | 64 µg/mL
CCn1cc(C(=O)O)c(=O)c2cc(F)c(-c3cscn3)cc21 | MIC | - | - | - | 25 µg/mL
Cc1noc(N)c1C(=O)N/N=C/c1ccccc1 | MIC90 | resazurin | - | PCM 672 | >100 µg/mL
CC1COc2c(N3CCN(C)CC3)c(F)cc3c(=O)c(C(=O)O)cn1c23 | MIC90 | - | - | 20 strains | 3.13 µg/mL
COc1cccc(/C=N/N=C(\N)c2ccccn2)c1OC | MIC | - | - | - | 256 µg/mL
NC[C@H]1O[C@H](O[C@H]2[C@H](O)[C@@H](O[C@H]3O[C@H](CO)[C@@H](O)[C@H](N)[C@H]3O)[C@H](N)C[C@@H]2N)[C@H](N)C[C@@H]1O | MIC | - | - | ATCC 6841 | 16 µg/mL
CCn1cc(C(=O)O)c(=O)c2cc(Cl)c(-c3nc(C)cs3)cc21 | MIC | - | - | - | 12.5 µg/mL
CC(C)CSc1ccnc(C(N)=S)c1 | MIC | - | - | 1021 | 2000 µM
COc1cc(OC)c2c(ccc3c(O)c(O)c(O)cc32)c1 | MIC | - | - | - | 25 µg/mL
CCCCCCCCSc1ccnc(C(N)=S)c1 | MIC | - | - | 1021 | 125 µM
Cc1noc2ncn(/N=C/c3ccc(Cl)c(Cl)c3)c(=O)c12 | MIC90 | resazurin | - | PCM 672 | >100 µg/mL
Nc1nc(N)c2c(n1)NC(c1ccc3c(c1)OCO3)CC(c1ccc(Cl)cc1)=N2 | MIC | MTT / broth dilution / absorbance | clinical isolate | MNT1073 | >32 µg/mL
Cc1c(CN2CCN(C)CC2)cc(-c2ccc(Cl)cc2)n1-c1ccc(Cl)cc1 | MIC | - | - | CA10 | 3.1 µg/mL
CCOC1Oc2ccc([N+](=O)[O-])cc2C(=O)/C1=C\Nc1ccc(C(=O)O)c(O)c1 | MIC | - | - | 1021 | >100 µg/mL
NNC(=O)c1ccncc1 | MIC | MTT / broth dilution / absorbance | clinical isolate | MNT1073 | >0.5 µg/mL
CCOC1Oc2ccccc2C(=O)/C1=C\Nc1cccc(C(=O)O)c1O | MIC | - | - | 1021 | >100 µg/mL
CSc1nc(N)c2c(n1)NC(c1ccc(Cl)cc1)CC(c1ccc3c(c1)OCO3)=N2 | MIC | MTT / broth dilution / absorbance | clinical isolate | MNT1073 | >32 µg/mL

The last 9 rows once more:

smiles	measure	read by	conditions	strain or isolate	value
COc1cc(OC)c2c(ccc3c(O)c(O)c(O)cc32)c1	MIC	-	-	-	25 µg/mL
CCCCCCCCSc1ccnc(C(N)=S)c1	MIC	-	-	1021	125 µM
Cc1noc2ncn(/N=C/c3ccc(Cl)c(Cl)c3)c(=O)c12	MIC90	resazurin	-	PCM 672	>100 µg/mL
Nc1nc(N)c2c(n1)NC(c1ccc3c(c1)OCO3)CC(c1ccc(Cl)cc1)=N2	MIC	MTT / broth dilution / absorbance	clinical isolate	MNT1073	>32 µg/mL
Cc1c(CN2CCN(C)CC2)cc(-c2ccc(Cl)cc2)n1-c1ccc(Cl)cc1	MIC	-	-	CA10	3.1 µg/mL
CCOC1Oc2ccc([N+](=O)[O-])cc2C(=O)/C1=C\Nc1ccc(C(=O)O)c(O)c1	MIC	-	-	1021	>100 µg/mL
NNC(=O)c1ccncc1	MIC	MTT / broth dilution / absorbance	clinical isolate	MNT1073	>0.5 µg/mL
CCOC1Oc2ccccc2C(=O)/C1=C\Nc1cccc(C(=O)O)c1O	MIC	-	-	1021	>100 µg/mL
CSc1nc(N)c2c(n1)NC(c1ccc(Cl)cc1)CC(c1ccc3c(c1)OCO3)=N2	MIC	MTT / broth dilution / absorbance	clinical isolate	MNT1073	>32 µg/mL

Two numbers with a dash give a range or band. ECn is the concentration giving n% inhibition of infection, replication or growth. Neighbouring rows are from separate reports. Blank or dashed fields: not listed here.